Data reported in patent WO2022250107A1, “Human neutralizing antibody against wild-type strain and mutant strain of sars-cov-2, and antigen-binding fragment thereof” (dated 2022).

Biological target: SARS-CoV-2 S protein trimer (ACROBiosystems), wild type (SARS-CoV-2, UniProt P0DTC2 16-1213)

B1: EV053272 (antibody, V domains shown)
VH: QVQLVQSGAEVKKPGSSVKVSCKASGGTFSSYAISWVRQAPGQGLKWMGGIIPIFGTAKYAQKFQGRVTITADESTSTAYMELSSLRSEDTAVYYCASGRPVTIGVSSTTGVFDYWGQGTLVTVSS
VL: DIVMTQSPDSLAVSLGERATINCKSRQSVLYSSNNKNYLAWYQQKPGQPPKLLIYWASTRESGVPDRFSGSGSGTDFTLTISSLQAEDVAVYYCQQYYSSPITFGQGTRLEIKR
Question: How did the EC50 turn out when B1 was run?
Answer: 0.013 µg/mL
